Screening data, single-dose tests

Measurements from “University of Dundee, Small-Polar-MMV Screening Library” (2021), ChEMBL document CHEMBL3988442.

Results are given as percent effect. The record does not define 0% and 100%; most values in the screen are far below 50% and negative numbers occur (in some assays of this library far below -100). The entries come from a sample that favours strong results.

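Phenotypic screen: M. tuberculosis growth, glucose 7H9 medium, 3 days; the read-out is not stated. Concentration: 500 µM. Higher reads as more growth inhibition (inferred: compounds with an IC50 in retests scored well above the rest). Size under these conditions: about 18,000 compounds, about 1,400 of them at 50% or above in at least one test.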

For Cn1ccc(C(=O)NCc2nccs2)cc1=O the result was -5.574%. With CC(C)n1nccc1NC(=O)CNC(=O)c1cccs1 the screen gave 7.134%. Cc1ccsc1CNC(=O)Cn1cc(F)ccc1=O read 3.072%. Result for CN1CCCN(C(=O)NCCCNS(C)(=O)=O)CC1 was 1.2%. With CC1(c2ccccc2)CNCCO1 (stereo unspecified) the screen gave -12.79%. Result for CNCC(=O)NC(C)c1nc(-c2ccc(Br)cc2)no1 (stereo unspecified) was 64.47%.

With COCC(=O)NCCc1cc(Cl)c2c(c1)OCCO2 the screen gave 57.7%. Result for Cn1ccnc1CCNC(=O)C1(C)CCCO1 (stereo unspecified) was 8.541%. Cc1cc(S(=O)(=O)N(C)Cc2nnc[nH]2)c(C)o1 read 21.78%. NS(=O)(=O)Cc1cccc(NC(=O)N2CCSCC2)c1 read 10.45%. Cc1nc(C(F)(F)F)ccc1C(=O)NCCS(C)(=O)=O read -3.443%. For CC(C)(C)CC(=O)N1CCCCC1CN (stereo unspecified) the result was -0.4258%.

Result for Cc1nc(CNC(=O)CC2=CCCCC2)no1 was 51.14%. O=S(=O)(CCO)NCc1ccccc1 read 14.29%. For Cc1cc(Cl)ccc1NC(=O)CN1CCN(C)CC1 the result was 52.23%. With CC(C)c1noc(CCNC(=O)Cc2ccncc2)n1 the screen gave 15.95%. With N[C@@H]1CCN(Cc2cc(F)cc(C(F)(F)F)c2)C[C@H]1O the screen gave 60.36%. CSCC(C)(O)CNc1nnnn1-c1ccccc1 (stereo unspecified) read 63.03%.

O=S(=O)(CCN1CCN(CCO)CC1)C(F)(F)F gave -1.787%. Result for CCc1cnccc1C(=O)NCCc1cncn1C was -1.208%. With Cn1ccc(C(=O)N2CCCC2c2cccs2)cc1=O (stereo unspecified) the screen gave -1.749%. With N#Cc1cccc(NC(=O)CCN2CCOC2=O)c1 the screen gave 5.418%. CCn1nc(C)cc1C(=O)Nc1ccnc(N(C)C)n1 gave 56.85%. With Cc1nc(CN2CCN(c3ncc(Br)cn3)CC2)n[nH]1 the screen gave -10.05%.

O=C(CSCc1cccs1)NC1CC1 gave 19.94%. With NC1CCOc2ccc(F)cc21 (stereo unspecified) the screen gave 25.67%. For Nc1cnccc1CO the result was -2.429%. NS(=O)(=O)CC1Cc2ccccc2C1 read 23.33%. For NCCCC(=O)N(Cc1ccccc1F)C1CCC1 the result was 68.11%. Result for CSCCC(=O)NC(C)c1ccc2c(c1)OCCCO2 (stereo unspecified) was 55.61%.

For NC(=O)NCc1ccc(N2CC=CC2)cc1 the result was -2.54%. COc1ccc(N2CCNC(C)C2)cc1 (stereo unspecified) gave 30.82%. COc1cccc(C(=O)Nc2ccnn2C(C)C)c1 read 53.41%. CCN(CC1CCCO1)C(=O)CCCc1cn[nH]c1 (stereo unspecified) read 9.83%. CCc1nn2c(=O)cc(CN3CCCC3)nc2s1 gave -5.634%. Result for CCn1ncnc1CN1CCC(O)(c2ccccc2)C1 (stereo unspecified) was -5.707%.

Result for CNCc1csc(C)n1 was 16.66%. With CN(C)S(=O)(=O)CCCN1CC(c2ccccn2)C1 the screen gave 8.602%. With CNCc1nc(C)cs1 the screen gave -1.791%. For NC(=O)c1ccc(CNC(=O)CCc2ccccc2)o1 the result was 9.586%. O=C(c1cc(Br)c[nH]1)N1CCCCC1 gave 13.41%. CCN(Cc1ccc2c(c1)OCCO2)[C@H]1COC[C@@H]1O read 11.03%.

Result for COCC(=O)NC1CCc2ccccc21 (stereo unspecified) was 53.68%. CCN(C)S(=O)(=O)NCC1(N)CCCCC1 read -4.73%.

The first 4 entries again:

SMILES,effect
Cn1ccc(C(=O)NCc2nccs2)cc1=O,-5.574
CC(C)n1nccc1NC(=O)CNC(=O)c1cccs1,7.134
Cc1ccsc1CNC(=O)Cn1cc(F)ccc1=O,3.072
CN1CCCN(C(=O)NCCCNS(C)(=O)=O)CC1,1.2